Data published in publication PMC8619001, “Discovery of New Ginsenol-Like Compounds with High Antiviral Activity” (Molecules, 2021).

Assays:
[1] = test system: influenza virus A/Puerto Rico/8/34 (H1N1); assay: CPE reduction (cytoprotection) assay in MDCK cells; type: cell-based; settings: ratio CC50/IC50, A/Puerto Rico/8/34 (H1N1)
[2] = test system: B/Florida/4/2006 (Yamagata-like); assay: Cytoprotection assay in MDCK cells; type: cell-based, influenza virus B/Florida/4/2006 (Yamagata-like); settings: ratio CC50/IC50, B/Florida/4/2006 (Yamagata-like)
[3] = test system: influenza virus A/Puerto Rico/8/34 (H1N1), control virus (C)
[4] = test system: A/Anhui/1/2013 (H7N9); assay: Cytoprotection assay in MDCK cells; type: cell-based, influenza virus A/Anhui/1/2013 (H7N9); settings: ratio CC50/IC50, A/Anhui/1/2013 (H7N9)
[5] = test system: A/Vladivostok/2/2009 (H1N1); assay: Cytoprotection assay in MDCK cells; type: cell-based; settings: ratio CC50/IC50, A/Vladivostok/2/2009 (H1N1)
[6] = test system: A/Mallard/Pennsylvania/1984 (H5N2); assay: Cytoprotection assay in MDCK cells; type: cell-based, influenza virus A/mallard/Pennsylvania/10218/84 (H5N2); settings: ratio CC50/IC50, A/Mallard/Pennsylvania/1984 (H5N2)
[7] = test system: A/California/7/2009 (H1N1) pdm09; assay: Cytoprotection assay in MDCK cells; type: cell-based, influenza virus A/California/07/09 (H1N1)pdm09; settings: ratio CC50/IC50, A/California/7/2009 (H1N1) pdm09

SMILES | SI [1] | SI [2] | IC50 [3] | SI [4] | SI [5] | SI [6] | SI [7]
CCOC(=O)C1=C[C@@H](OC(CC)CC)[C@H](NC(C)=O)[C@@H](N)C1 [Oseltamivir, reference compound] | 645 |  |  |  |  |  | 
CC(=O)NC12CC(C)(C)C3CCC1(C)CCCC32C [Compound 1a, (1S,3aR,4R,7aS)-N-(2,2,4,7a-tetramethyloctahydro-1,4-etanoinden-3a-yl)-acetamide] | 7500 | 1 | 23.6 µM | 9 | 3000 | 9 | 107
